Reference: paper PMC6105683

Sequences of proteins named here, by UniProt entry; tags and fusion partners are left off.
UniProt Q8C6L5, whole entry: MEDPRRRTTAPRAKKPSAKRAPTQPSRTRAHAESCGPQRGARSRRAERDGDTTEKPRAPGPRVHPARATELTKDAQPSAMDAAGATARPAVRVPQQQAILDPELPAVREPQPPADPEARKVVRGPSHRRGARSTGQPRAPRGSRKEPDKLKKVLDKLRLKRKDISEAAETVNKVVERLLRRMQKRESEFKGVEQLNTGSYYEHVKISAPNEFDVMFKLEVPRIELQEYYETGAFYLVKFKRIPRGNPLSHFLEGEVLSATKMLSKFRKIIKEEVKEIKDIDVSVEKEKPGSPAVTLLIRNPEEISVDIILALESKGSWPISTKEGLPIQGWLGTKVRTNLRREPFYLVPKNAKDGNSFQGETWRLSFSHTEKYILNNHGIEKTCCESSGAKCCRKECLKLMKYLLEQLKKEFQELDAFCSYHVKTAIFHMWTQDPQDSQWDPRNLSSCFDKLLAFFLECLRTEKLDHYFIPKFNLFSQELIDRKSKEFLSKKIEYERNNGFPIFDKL
UniProt Q8N884, whole entry: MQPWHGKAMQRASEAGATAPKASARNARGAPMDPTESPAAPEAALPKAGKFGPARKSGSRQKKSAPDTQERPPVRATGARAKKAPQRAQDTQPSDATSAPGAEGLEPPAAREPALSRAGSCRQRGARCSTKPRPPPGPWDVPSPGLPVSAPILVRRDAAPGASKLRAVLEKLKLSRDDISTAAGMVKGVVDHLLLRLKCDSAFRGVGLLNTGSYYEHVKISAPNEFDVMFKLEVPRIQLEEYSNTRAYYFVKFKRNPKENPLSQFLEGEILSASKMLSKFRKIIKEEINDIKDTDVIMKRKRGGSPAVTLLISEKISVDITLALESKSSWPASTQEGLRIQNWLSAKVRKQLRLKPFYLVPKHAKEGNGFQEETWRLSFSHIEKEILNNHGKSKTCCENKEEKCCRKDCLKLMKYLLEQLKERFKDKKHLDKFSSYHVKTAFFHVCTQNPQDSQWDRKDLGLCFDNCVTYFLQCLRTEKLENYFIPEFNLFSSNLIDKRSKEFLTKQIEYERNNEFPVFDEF

Tests used:
Assay in all cases: pull-down
endogenous cGAS (mouse) = endogenous cGAS (mouse) (UniProt Q8C6L5); conditions: Zcchc3+/+ MLF or MEF lysate; protein in an extract; label: biotin
HA-cGAS = HA-cGAS (UniProt Q8N884); conditions: enhanced by ZCCHC3 overexpression; protein in a lysate after overexpression; protein details: HA; label: biotin
[1] = biological target: T1, Flag-ZCCHC3 C-terminal zinc finger constructs (UniProt Q9NUD5); conditions: protein in a lysate after overexpression; protein details: Flag; label: biotin
T1 sequence (looked up, limits assumed): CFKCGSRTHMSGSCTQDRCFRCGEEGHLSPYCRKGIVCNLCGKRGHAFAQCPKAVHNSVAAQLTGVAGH

HA-ZCCHC3 = biological target: T2, HA-ZCCHC3 (UniProt Q9NUD5); conditions: protein in a lysate after overexpression; protein details: HA; label: biotin
T2 sequence (looked up, limits assumed): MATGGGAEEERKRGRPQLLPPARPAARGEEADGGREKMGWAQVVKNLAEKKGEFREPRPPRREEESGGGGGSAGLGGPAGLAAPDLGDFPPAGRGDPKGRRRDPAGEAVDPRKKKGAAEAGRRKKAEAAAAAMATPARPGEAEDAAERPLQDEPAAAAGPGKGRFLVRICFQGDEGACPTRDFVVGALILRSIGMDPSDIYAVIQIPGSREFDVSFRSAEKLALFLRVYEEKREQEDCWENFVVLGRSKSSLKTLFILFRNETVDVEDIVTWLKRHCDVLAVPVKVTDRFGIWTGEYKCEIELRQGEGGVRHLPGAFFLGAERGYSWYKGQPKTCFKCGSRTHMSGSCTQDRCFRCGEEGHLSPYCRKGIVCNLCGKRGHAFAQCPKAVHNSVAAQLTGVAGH

Measured: binding result

AGACGGTATATTTTTGCGTTATCACTGTCCCGGATTGGACACGGTCTTGTGGGATAGGCATGCCCAGAAGGCATATTGGGTTAACCCCTTTTTATTTGTGGCGGGTTTTTTGGAGGACTT (double strand) [HSV120]
binds: all assays above

The exact form of at least one protein or probe is not confirmed. Where cells or extracts were used, other partners may take part. For some of these results: At least one verdict was read from the data and is not stated in words by the source. For some of these results: Protein sequences can lack the tags named with them.
